In US20120316161A1, “NOVEL ANTIVIRAL COMPOUNDS” (KATHOLIEKE UNIVERSITEIT LEUVEN, priority 2009, published 2012):

tested on: HIV; assay type: cell-based; conditions: selectivity index, ratio of CC50 to EC50
Procedure: A rapid and automated assay procedure was used for the in vitro evaluation of anti-HIV agents. An HTLV-1 transformed T4-cell line MT-4, which was previously shown to be highly susceptible to and permissive for HIV infection, served as the target cell line. Inhibition of the HIV-induced cytopathogenic effect was used as the end point. The viability of both HIV-and mock-infected cells was assessed spectrophotometrically via in situ reduction of 3-(4,5-dimethylthiazol-2-yl)-2,5-diphenyltetrazolium bromide (MTT). The 50% cytotoxic concentration (CC50 in μg/ml) was defined as the concentration of compound that reduced the absorbance of the mock-infected control sample by 50%. The percent protection achieved by the compound in HIV-infected cells was calculated by the following formula: […]
whereby (ODT)HIV is the optical density measured with a given concentration of the test compound in HIV-infected cells; (ODC)HIV is the optical density measured for the control untreated HIV-infected cells; (ODC)MOCK is the optical density measured for the control untreated mock-infected cells; all optical density values were determined at 540 nm. The dose achieving 50% protection according to the above formula was defined as the 50% inhibitory concentration (EC50 in μg/ml or μM). The ratio of CC50 to EC50 was defined as the selectivity index (SI). […] Examples of inhibition of cell proliferation by particular compounds of the invention can be found by looking at the respective CC50 values in the MT-4 cell line. Cells: MT-4 cells (Miyoshi et al., 1982) were grown and maintained in RPMI 1640medium supplemented with 10% heat-inactivated fetal calf serum, 2 mM 1-glutamine, 0.1% sodium bicarbonate, and 20æg of gentamicin per ml.
Viruses: The HIV-1 (NL4.3) strain (Adachi et al., 1986) is a molecular clone obtained from the National Institutes of Health (Bethesda, Md.). The HIV-2 (ROD) (Barr, -Sinoussi et al., 1983) stock was obtained from culture supernatant of HIV-2 infected cell lines.

Molecule | SI
2-[2-tert-butyl-7-(2-hydroxy-4-methylphenyl)-5-methylpyrazolo[1,5-a]pyrimidin-6-yl]acetic acid [CPD-117] | 57
CCCC(C(=O)O)c1c(C)nc2ccnn2c1-c1ccc(C)cc1 (stereo not drawn) [CPD-57, 2-(5-methyl-7-p-tolylpyrazolo[1,5-a]pyrimidin-6-yl)pentanoic acid] | >1
CCCC(C(=O)O)c1c(C)nc2cc(C(C)(C)C)nn2c1-c1ccccc1 (stereo not drawn) [CPD-58, 2-(2-tert-butyl-5-methyl-7-phenylpyrazolo[1,5-a]pyrimidin-6-yl)pentanoic acid] | 5
CCCC(C(=O)O)c1c(C)nc2cc(C(C)(C)C)nn2c1-c1ccc(C)cc1 (stereo not drawn) [CPD-59, 2-(2-tert-butyl-5-methyl-7-p-tolylpyrazolo[1,5-a]pyrimidin-6-yl)pentanoic acid] | >18
CCCC(C(=O)O)c1c(C)nc2c(Br)c(C(C)(C)C)nn2c1-c1ccc(C)cc1 (stereo not drawn) [CPD-60, 2-(3-bromo-2-tert-butyl-5-methyl-7-p-tolylpyrazolo[1,5-a]pyrimidin-6-yl)pentanoic acid] | 23
CCCC(C(=O)O)c1c(C)nc2cc(-c3ccccc3)nn2c1-c1ccc(C)cc1 (stereo not drawn) [CPD-61, 2-(5-methyl-2-phenyl-7-p-tolylpyrazolo[1,5-a]pyrimidin-6-yl)pentanoic acid] | 4
CCCC(C(=O)O)c1c(C)nc2cc(C(C)(C)C)nn2c1-c1ccc2cc[nH]c2c1 (stereo not drawn) [CPD-65, 2-(2-tert-butyl-7-(1H-indol-6-yl)-5-methylpyrazolo[1,5-a]pyrimidin-6-yl)pentanoic acid] | 8
CCCC(C(=O)O)c1c(C)nc2cc(C(C)(C)C)nn2c1-c1ccc2occc2c1 (stereo not drawn) [CPD-66, 2-(7-(benzofuran-5-yl)-2-tert-butyl-5-methylpyrazolo[1,5-a]pyrimidin-6-yl)pentanoic acid] | 9
CCCC(C(=O)O)c1c(C)nc2cc(C(C)(C)C)nn2c1-c1ccc2sccc2c1 (stereo not drawn) [CPD-67, 2-(7-(benzo[b]thiophen-5-yl)-2-tert-butyl-5-methylpyrazolo[1,5-a]pyrimidin-6-yl)pentanoic acid] | 24
CCCC(C(=O)O)c1c(C)nc2cc(C(C)(C)C)nn2c1-c1ccc2c(c1)CCO2 (stereo not drawn) [CPD-68, 2-(2-tert-butyl-7-(2,3-dihydrobenzofuran-5-yl)-5-methylpyrazolo[1,5-a]pyrimidin-6-yl)pentanoic acid] | 16
CCCC(C(=O)O)c1c(C)nc2cc(C(C)(C)C)nn2c1-c1ccc(Cl)cc1 (stereo not drawn) [CPD-69, 2-(2-tert-butyl-7-(4-chlorophenyl)-5-methylpyrazolo[1,5-a]pyrimidin-6-yl)pentanoic acid] | 25
CCCC(C(=O)O)c1c(C)nc2cc(C(C)(C)C)nn2c1-c1ccc(C)c(C)c1 (stereo not drawn) [CPD-70, 2-(2-tert-butyl-7-(3,4-dimethylphenyl)-5-methylpyrazolo[1,5-a]pyrimidin-6-yl)pentanoic acid] | >1
CCCC(C(=O)O)c1c(C)nc2cc(C(C)(C)C)nn2c1-c1ccc(CC)cc1 (stereo not drawn) [CPD-71, 2-(2-tert-butyl-7-(4-ethylphenyl)-5-methylpyrazolo[1,5-a]pyrimidin-6-yl)pentanoic acid] | 26
CCCC(C(=O)O)c1c(C)nc2cc(C(C)(C)C)nn2c1-c1ccc2c(c1)OCCCO2 (stereo not drawn) [CPD-72, 2-(2-tert-butyl-7-(3,4-dihydro-2H-benzo[b][1,4]dioxepin-7-yl)-5-methylpyrazolo[1,5-a]pyrimidin-6-yl)pentanoic acid] | <6
CCCc1cc2nc(C)c(C(CCC)C(=O)O)c(-c3ccc(C)cc3)n2n1 (stereo not drawn) [CPD-77, 2-(5-methyl-2-propyl-7-p-tolylpyrazolo[1,5-a]pyrimidin-6-yl)pentanoic acid] | 7
CCCC(C(=O)O)c1c(C)nc2cc(-c3ccco3)nn2c1-c1ccc(C)cc1 (stereo not drawn) [CPD-78, 2-(2-(furan-2-yl)-5-methyl-7-p-tolylpyrazolo[1,5-a]pyrimidin-6-yl)pentanoic acid] | 6
CCCC(C(=O)O)c1c(C)nc2cc(C(C)(C)C)nn2c1-c1ccc(Cl)cc1F (stereo not drawn) [CPD-79, 2-(2-tert-butyl-7-(4-chloro-2-fluorophenyl)-5-methylpyrazolo[1,5-a]pyrimidin-6-yl)pentanoic acid] | 40

Molecule | SI
CCCC(C(=O)O)c1c(C)nc2cc(C(C)(C)C)nn2c1-c1ccc(C)cc1F (stereo not drawn) [CPD-80, 2-(2-tert-butyl-7-(2-fluoro-4-methylphenyl)-5-methylpyrazolo[1,5-a]pyrimidin-6-yl)pentanoic acid] | 47
Cc1ccc(-c2c(C(CCCC(F)(F)F)C(=O)O)c(C)nc3cc(C(C)(C)C)nn23)cc1 (stereo not drawn) [CPD-81, 2-(2-tert-butyl-7-p-tolyl-5-methylpyrazolo[1,5-a]pyrimidin-6-yl)-6,6,6-trifluorohexanoic acid] | 3
CCCC(C(=O)O)c1c(C)nc2c(Cl)c(C(C)(C)C)nn2c1-c1ccc(C)cc1 (stereo not drawn) [CPD-87, 2-(2-tert-butyl-3-chloro-7-p-tolyl-5-methylpyrazolo[1,5-a]pyrimidin-6-yl)pentanoic acid] | 16
COCCC(C(=O)O)c1c(C)nc2cc(C(C)(C)C)nn2c1-c1ccc(C)cc1 (stereo not drawn) [CPD-88, 2-(2-tert-butyl-7-p-tolyl-5-methylpyrazolo[1,5-a]pyrimidin-6-yl)-4-methoxybutanoic acid] | >7
CCCC(C(=O)O)c1c(C)nc2cc(C(C)(C)C)nn2c1-c1ccc(C(C)C)cc1 (stereo not drawn) [CPD-89, 2-(2-tert-butyl-5-methyl-7-(4-iso-propylphenyl)pyrazolo[1,5-a]pyrimidin-6-yl)pentanoic acid] | 6
CCCC(C(=O)O)c1c(C)nc2cc(C(C)(C)C)nn2c1-c1ccc(C(F)(F)F)cc1 (stereo not drawn) [CPD-90, 2-(2-tert-butyl-5-methyl-7-(4-trifluoromethylphenyl)pyrazolo[1,5-a]pyrimidin-6-yl)pentanoic acid] | 4
CCCC(C(=O)O)c1c(C)nc2cc(C(C)(C)C)nn2c1-c1ccc(F)cc1F (stereo not drawn) [CPD-91, 2-(2-tert-butyl-7-(2,4-difluorophenyl)-5-methylpyrazolo[1,5-a]pyrimidin-6-yl)pentanoic acid] | 5
CCCC(C(=O)O)c1c(C)nc2cc(C(C)(C)C)nn2c1-c1ccc(C)cc1Cl (stereo not drawn) [CPD-92, 2-(2-tert-butyl-7-(2-chloro-4-methylphenyl)-5-methylpyrazolo[1,5-a]pyrimidin-6-yl)pentanoic acid] | 7
CCCC(C(=O)O)c1c(C)nc2cc(C(C)(C)C)nn2c1-c1ccc(C)cc1N (stereo not drawn) [CPD-93, 2-(7-(2-amino-4-methylphenyl)-2-tert-butyl-5-methylpyrazolo[1,5-a]pyrimidin-6-yl)pentanoic acid] | 16
CCCC(C(=O)O)c1c(C)nc2cc(C(C)(C)C)nn2c1-c1ccc(OC)cc1F (stereo not drawn) [CPD-95, 2-(2-tert-butyl-7-(2-fluoro-4-methoxyphenyl)-5-methylpyrazolo[1,5-a]pyrimidin-6-yl)pentanoic acid] | 15
CCCC(C(=O)O)c1c(C)nc2cc(C(C)(C)C)nn2c1-c1ccc(C)cc1C (stereo not drawn) [CPD-98, 2-(2-tert-butyl-7-(2,4-dimethylphenyl)-5-methylpyrazolo[1,5-a]pyrimidin-6-yl)pentanoic acid] | 12
CCCC(C(=O)O)c1c(C)nc2c(C)c(C(C)(C)C)nn2c1-c1ccc(C)cc1 (stereo not drawn) [CPD-99, 2-(2-tert-butyl-3,5-dimethyl-7-p-tolylpyrazolo[1,5-a]pyrimidin-6-yl)pentanoic acid] | 34
CCCC(C(=O)O)c1c(C)nc2c(-c3ccccc3)c(C(C)(C)C)nn2c1-c1ccc(C)cc1 (stereo not drawn) [CPD-100, 2-(2-tert-butyl-5-methyl-3-phenyl-7-p-tolylpyrazolo[1,5-a]pyrimidin-6-yl)pentanoic acid] | 4
CCCC(C(=O)O)c1c(C)nc2c(nc(C)n2C)c1-c1ccc(C)cc1 (stereo not drawn) [CPD-105, 2-(2,3,5-Trimethyl-7-p-tolyl-3H-imidazo[4,5-b]pyridin-6-yl)pentanoic acid] | 10
CCCC(C(=O)O)c1c(C)nc2nc(C(C)C)nn2c1-c1ccc(C)cc1 (stereo not drawn) [CPD-121, 2-(2-isopropyl-5-methyl-7-p-tolyl-[1,2,4]-triazolo[1,5-a]pyrimidin-6-yl)pentanoic acid] | >2
Ethyl 2-(2-benzyl-5-methyl-7-p-tolyl-[1,2,4]-triazolo[1,5-a]pyrimidin-6-yl)pentanoate [CPD-123] | 5
